## Mutational scan of HIV-1 Vif (1203) in cells with APOBEC3G

Vif of 1203 (a subtype B primary isolate), residues 12-115; positions count from the first residue of the whole protein:
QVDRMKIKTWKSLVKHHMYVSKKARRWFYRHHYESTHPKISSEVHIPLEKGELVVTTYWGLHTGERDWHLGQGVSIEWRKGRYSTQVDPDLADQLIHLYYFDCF

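A pool of vif mutants was passaged twice, 72 h each, on SupT1 cells that express APOBEC3G. Frequencies after the second round, in three biological replicates, were compared with the merged pool after the first round.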

Values are log2 enrichment relative to wild type (0); lower means weaker defence against APOBEC3G and poorer growth.
Each entry names the wild-type residue, its position and the residue put in its place.
All changes here are to glycine.
The median of three replicates is given, with the replicates in brackets.
Input reads are the counts in the merged round-one pool, before selection.

substitution,input reads,log2 enrichment (median)
Q12G,39,0.58 (-0.43 / 4.19 / 0.58)
D14G,37,0.21 (-0.98 / 4.64 / 0.21)
K17G,375,-1.46 (1.71 / -1.79 / -1.46)
K19G,39,-1.61 (-1.61 / -3.72 / 0.56)
S23G,169,0.55 (5.62 / -0.21 / 0.55)
L24G,406,-0.23 (1.67 / -2.84 / -0.23)
H28G,102,-1.89 (1.89 / -2.28 / -1.89)
S32G,494,-1.55 (-1.34 / -2.98 / -1.55)
K33G,186,-2.03 (-2.03 / -3.62 / -1.31)
K34G,140,-1.48 (-1.47 / -1.48 / -1.96)
A35G,39,-2.13 (-2.30 / -2.13 / -1.00)
W38G,256,-1.51 (-1.45 / -1.91 / -1.51)
F39G,374,-2.32 (-2.32 / -2.46 / -2.05)
R41G,52,3.62 (4.19 / 3.62 / 0.66)
H42G,1025,-2.14 (-2.28 / -0.39 / -2.14)
H43G,230,-2.03 (0.59 / -2.03 / -2.93)
S46G,1188,-1.83 (-1.83 / 0.21 / -1.88)
S52G,17,-0.22 (1.37 / -0.22 / -0.58)
V55G,31,1.24 (5.54 / -0.60 / 1.24)
H56G,219,-1.81 (-0.58 / -1.81 / -2.10)
P58G,440,0.43 (0.64 / 0.43 / 0.40)
V65G,315,-2.64 (-2.79 / -2.64 / -2.07)
V66G,245,-1.90 (-1.90 / -2.29 / -1.59)
W70G,183,-1.64 (1.72 / -2.78 / -1.64)
H73G,154,-2.98 (-4.28 / -2.53 / -2.98)
R77G,21,0.89 (0.89 / -1.23 / 3.28)
V85G,21,-0.52 (5.75 / -0.52 / -0.78)
S86G,208,-2.04 (-0.74 / -2.04 / -2.28)
W89G,103,-2.30 (-2.50 / -2.30 / 2.55)
R90G,340,-1.73 (-1.73 / 2.56 / -2.20)
S95G,18,2.30 (6.07 / 1.06 / 2.30)
Q97G,384,-2.73 (-3.72 / -2.73 / -2.72)
V98G,25,-3.11 (-3.28 / -3.11 / -2.72)
D99G,8301,-2.68 (-2.68 / -2.90 / -1.44)
P100G,20,0.93 (-1.35 / 0.93 / 4.89)
D101G,151,-3.28 (-3.87 / -0.88 / -3.28)
A103G,31,-3.42 (-3.58 / -3.42 / -3.03)
Q105G,106,-2.45 (-2.52 / -2.00 / -2.45)
L106G,57,-1.96 (-1.63 / -1.96 / -2.28)
Y111G,381,-2.21 (-2.41 / 0.48 / -2.21)
F112G,738,-2.61 (-2.69 / -2.61 / -2.18)
D113G,38,-0.14 (-2.30 / 5.72 / -0.14)
C114G,38,3.62 (4.46 / 3.62 / 1.33)

Not every substitution is listed.
Positive scores are uncertain; some enriched variants did not exclude APOBEC3G in a separate test.
Replicates agree only moderately (rank correlation about 0.4-0.65); scores from under about 50 input reads tend to be too high.

Source: Langley et al. 2025, preprint (doi:10.1101/2025.10.20.683452), supplementary data.